Experimental data: PubChem BioAssay AID504761 (Drosophila RNAi Screening Center, 2011)

Test: 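Insect host genes that dengue virus relies on to spread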 (primary screen)
System: D.Mel-2 cells from Drosophila
Reagent: long dsRNA against Drosophila genes
Conditions: infection with dengue virus type 2; dose and infection time not stated
Measurement: 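Cells stained for dengue envelope protein and imaged; percent of infected cells per well on duplicate plates, ranked by infection, with stained nuclei counted for cell number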
Direction: infection score: higher = more virus-infected cells; cell count: higher = more cells in the well
Hit rule: 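Low infection ranks in the two replicates (chance level up to 0.065) followed by a retest with a 1.5-fold or larger significant decrease, p below 0.05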
Calls: active = confirmed: knock-down lowers infection; inactive = not picked or not confirmed
The deposit covers about 22,000 reagents; below is an unselected part of those that have a named target and a result. In the full data, 116 (0.52%) are marked active. 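Calls depend on retest data that are not deposited; infection was ranked per plate without normalising between plates; the unit of the infection score is not given.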 The raw values are shown without normalisation. Reagents against one gene are numbered here. Names joined by + are all predicted targets of the reagent. Not stated in the record: the amount of reagent, the time to read-out.

target | reagent | infection score, replicate 1 | infection score, replicate 2 | cell count, replicate 1 | cell count, replicate 2 | Outcome
ken | 1 | 3.47 | 7.56 | 6476 | 7041 | inactive
CG10472 | 1 | 7.35 | 5.03 | 6518 | 6643 | inactive
CG10472 | 2 | 6.53 | 11.7 | 6064 | 6019 | inactive
Psc | 1 | 27 | 16.4 | 5270 | 6995 | inactive
Psc | 2 | – | 15.7 | 378 | 5904 | inactive
ND-B8 | 1 | 2.14 | 3.19 | 6960 | 6355 | inactive
scaf6 | 1 | 2.91 | 9.93 | 2820 | 6910 | inactive
scaf6 | 2 | 1.21 | 1.08 | 6759 | 7111 | inactive
CG2113 | 1 | 0.53 | 1.01 | 6082 | 5938 | inactive
CG2113 | 2 | 26.7 | 12.8 | 5231 | 2752 | inactive
CG13872 | 1 | 0.75 | 1.96 | 5628 | 5779 | inactive
PolA2 | 1 | 13.8 | 8.75 | 3405 | 5894 | inactive
TpnC4 | 1 | 8.46 | 16.6 | 6786 | 3821 | inactive
CG42588 | 1 | 1.59 | 2.28 | 6021 | 6226 | inactive
CG42588 | 2 | 4.26 | 8.21 | 5922 | 6638 | inactive
CG42588 | 3 | 16 | 8.26 | 6344 | 6562 | inactive
CG32450 | 1 | 2.66 | 1.4 | 5799 | 5804 | inactive
Lhr | 1 | 9.26 | 2.71 | 6390 | 921 | inactive
Lhr | 2 | 26 | 20.5 | 5979 | 6384 | inactive
CG9752 | 1 | 12.4 | 6 | 6417 | 6363 | inactive
CG32284 | 1 | 0.55 | 1.37 | 6227 | 5907 | inactive
FeCH | 1 | 7.02 | 1.89 | 5851 | 6398 | inactive
FeCH | 2 | 7.88 | 7.56 | 6422 | 7025 | inactive
SrpRbeta | 1 | 0.62 | 3.23 | 6138 | 6531 | inactive
SrpRbeta | 2 | 2.98 | 18.8 | 5833 | 5344 | inactive
primo-2 + primo-1 | 1 | 1.42 | 5.02 | 6062 | 6269 | inactive
primo-2 + primo-1 | 2 | 4.81 | 11.7 | 6605 | 6431 | inactive
CG16952 | 1 | 8.05 | 1.99 | 5540 | 6486 | inactive
shams | 1 | 1.48 | 13.2 | 6668 | 6083 | inactive
ImpE2 | 1 | 11.7 | – | 4479 | 473 | inactive
ImpE2 | 2 | 6.75 | 7.57 | 2236 | 3063 | inactive
Ist1 | 1 | 4.88 | 9.01 | 5084 | 5629 | inactive
Ist1 | 2 | 13.7 | 18.7 | 5676 | 5636 | inactive
Sgsh | 1 | 2.23 | 0.67 | 6471 | 6551 | inactive
AMPdeam | 1 | 11 | 4.59 | 6547 | 6629 | inactive
AMPdeam | 2 | – | – | 375 | 350 | inactive
AMPdeam | 3 | 4.67 | 10.1 | 6405 | 6500 | inactive
mRpL44 | 1 | 7.53 | 16.6 | 5992 | 5690 | inactive
mRpL44 | 2 | 4.47 | 7.33 | 5777 | 5812 | inactive
p24-1 | 1 | 12.3 | 3.15 | 5579 | 6609 | inactive
p24-1 | 2 | 1.6 | 1.85 | 6331 | 6598 | inactive
CG31233 | 1 | 9.58 | 9.79 | 3852 | 5119 | inactive
CG15366 (retired record) | 1 | 21 | 10.4 | 6066 | 6296 | inactive
mal | 1 | 1.83 | 1.63 | 6406 | 6375 | inactive
mal | 2 | 4.61 | 3.48 | 6854 | 6524 | inactive
CG18179 | 1 | 1.58 | 2.19 | 6218 | 5941 | inactive
CG18179 | 2 | 1.96 | 2.18 | 6284 | 6063 | inactive
Oseg1 | 1 | 4.57 | 6.46 | 6977 | 6765 | inactive
CG5402 | 1 | 3.84 | 1.99 | 6482 | 6947 | inactive
CG5402 | 2 | 19.9 | 9.9 | 5803 | 6587 | inactive
Ret | 1 | 15.7 | 14.6 | 6559 | 5373 | inactive
Ret | 2 | 0.24 | 0.15 | 829 | 687 | inactive
CG7329 | 1 | 4.7 | 3.92 | 6570 | 6640 | inactive
CG7329 | 2 | 3.19 | 1.2 | 6431 | 6004 | inactive
slf | 1 | 4.66 | 4.05 | 6379 | 6716 | inactive
slf | 2 | 1.47 | 9.47 | 6605 | 6486 | inactive
Ugt35E1 | 1 | 5.08 | 6.69 | 6137 | 6757 | inactive
Ugt35E1 | 2 | 17.1 | 5.2 | 5482 | 6737 | inactive
ND-B14.5AL | 1 | 6.67 | 7.1 | 6523 | 6729 | inactive
ND-B14.5AL | 2 | 13.7 | 9.09 | 6072 | 6027 | inactive
CG4098 | 1 | 3.18 | 2.94 | 6376 | 6087 | inactive
wrd | 1 | 5.66 | 4.52 | 6832 | 5664 | inactive
wrd | 2 | 0.9 | 4.09 | 6113 | 6795 | inactive
wrd | 3 | 1.74 | 3.26 | 6374 | 6495 | inactive
CG18530 | 1 | 5.07 | 10.5 | 6216 | 6345 | inactive
CG31680 | 1 | 10.5 | 7.81 | 6418 | 6286 | inactive
CG2938 | 1 | 39.5 | 13.8 | 5213 | 5782 | inactive
CG2938 | 2 | 34.9 | 15.9 | 5202 | 5222 | inactive
CG4751 | 1 | 18.4 | 7.29 | 6009 | 5998 | inactive
CG33465 | 1 | 0.82 | 2 | 6446 | 5702 | inactive
SPR | 1 | 2.11 | 1.39 | 6450 | 6859 | inactive
SPR | 2 | 3.57 | 2.81 | 6531 | 6800 | inactive
SPR | 3 | 1.01 | 7.28 | 6408 | 6289 | inactive
CG13021 | 1 | 10.8 | 3.69 | 5578 | 6729 | inactive

Records listed so far whose target name begins with R or r (2):
target | reagent | infection score, replicate 1 | infection score, replicate 2 | cell count, replicate 1 | cell count, replicate 2 | Outcome
Ret | 1 | 15.7 | 14.6 | 6559 | 5373 | inactive
Ret | 2 | 0.24 | 0.15 | 829 | 687 | inactive
